# Results published in ChEMBL document CHEMBL4732113, “Exploiting the tolerant region I of the non-nucleoside reverse transcriptase inhibitor (NNRTI) binding pocket. Part 2: Discovery of diarylpyrimidine derivatives as potent HIV-1 NNRTIs with high Fsp values and favorable drug-like properties” (Eur J Med Chem, 2021).
# Assay: Selectivity index, ratio of CC50 for human MT4 cells to EC50 for antiviral activity against HIV HIV1 RES056 harboring K103N/Y181C double mutant infected in human MT4 cells
# Assay type: toxicity, cell-based
# Details: read-out: Ratio CC50/EC50
structure (smiles),measurement,value
Cc1cc(C#N)cc(C)c1Oc1nc(Nc2ccc(C#N)cc2)nc(N)c1Br [ETRAVIRINE],selectivity ratio,> 76
